Structures are written as SMILES. The other results are listed elsewhere or left out. Only a part of the results of these assays is listed, not drawn at random. Active and inactive are the calls of the source. No cut-off for these calls is given here.

The target in this experiment is T1, Aberrant vpr protein (Human immunodeficiency virus 1) (UniProt Q77YF9).
T1 sequence (whole entry): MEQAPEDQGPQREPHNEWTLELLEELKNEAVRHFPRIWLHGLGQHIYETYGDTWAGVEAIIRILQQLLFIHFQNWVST
Briefly: qHTS Assay for Inhibitors of the HIV-1 protein Vpr. It counts as functional. In general terms: Quantitative high-throughput screening tests each substance at several concentrations.
Take `COc1ccc2nc(NP(=O)(c3ccccc3)c3ccccc3)sc2c1`: the Potency entry was “inactive”.
As for `O=C(OC1CN2CCC1CC2)c1cccc([N+](=O)[O-])c1` (centres undefined), the entry is “inactive”; as for `O=P1(Nc2ccc(Br)cn2)COc2ccccc2OC1`, “inactive”.
`Cc1ccccc1CN(C)C(=O)COC(=O)C(O)(c1ccccc1)c1ccccc1`: the Potency result was “inactive”.

Source of the values: ChEMBL document CHEMBL1201862, “PubChem BioAssay data set” (2004).
